From the supplement of paper PMC9931576
Human monoclonal antibodies against the spike receptor-binding domain (heavy:light variable regions). IC50 against pseudoviruses bearing the spike of naturally observed variants; lower = stronger; >10 µg/ml means not reached at the top dose. No active / inactive call. The stated detection limit is 0.0005 µg/ml; values near or below 0.001 µg/ml lie at the floor of the assay.

B1: BD55-6706 (protein)
chain 1: EVQLVESGGGLVQPGGSLRLSCAASGFTFSKYWMHWVRQAPGKGLVWVGRLNSDGSNTDYADSVRGRFTFSRDNAKNTLYLQLNSLRVEDTAVYYCAREEGYYYYYMDVWGKGTTVTVSS
chain 2: DIQMTQSPSSLSASVGDRVTITCRASQSISNYLNWYQHKPGKAPKLLIYSASTLQSGVPSRFSGSGSGTDFTLTISSLQPEDFATYYCQQSYTMPPLTFGGGTKVEIK
B2: BD55-6710 (protein)
chain 1: QVQLSQSGAEVKRPGASVKVSCKTSGYPFTDYGISWVRQAPGQGLEWMGWISGYNENTKYAQKFQGRVTLTTDTSTNTAFMEVRRLTSDDTAVYYCARDAGYCTTIGCFAAWYFDLWGRGTLVTVTS
chain 2: QSVLTQPSSVSGAPGQRVTISCTGSSSNIGAGFDVHWYQQLPGTAPQLLIYGNTNRPSGVPDRFSGSKSGTSASLAITGLQAEDEADYYCQAYDSSLSGWVFGGGSKLTVL
B3: BD55-6712 (protein)
chain 1: QERLVESGGGVVQPGRSLRLSCAASGLMFSSYAMFWVRQAPGKGLEWVAVISFDGSDKDYADSVKGRFTISRDNSKSTLFLQMNSMRVEDAGVYYCARDPLGFGPQSGGMDVWGQGTTVIVSS
chain 2: DIQMTQSPSSLSASVGDRVTITCRASQRISTYLNWYQQKPGKAPKLLIYAASSLQRGVPSRFSGSGSGTDFTLTISSLQPEDFATYYCQESYSTRTFGQGTRVEI
B4: BD55-6719 (protein)
chain 1: QVQLQESGPGLVKPSETLSLTCSVSGGSISDYYWSWIRQPPGKGLEWIGYIYYSGSTNYNPSLKSRVTISVDTPKRQFSLKLSSVTAADTAMYYCARVGWEPQAVRAFDIWGQGTMVTVSA
chain 2: DIQMTQSPSTLSASVGDRVTITCRASQNILGWLAWYQQKPGKAPKLLIYKASSLDSGVPSRFSGSGSGTDFTLTISSLQPDDFATYYCQQYNTYSPLTFGGGTKVEIK
B5: BD55-1323 (protein)
chain 1: EVQLVQSGAELKKPGESLRISCKGSGYSFTSFWITWVRQMPGKGLEWMGKIDPSESYTEYGPAFQGHVTISVDKSITTAYLQWSSLKASDTAIYYCARRVAGYHYGLDLWGQGTTVIVSS
chain 2: DIQMTQSPSSLSASVGDRVTITCRASQDISHFLAWYQQKPGKVPNLLIYAASTLQSGVPSRFSGSGSGTDFTLTISSLQPEDVATYYCQKYNSAPPDTFGQGTKVEI
B6: BD55-6725 (protein)
chain 1: EVQVVESGGGLVKPGGSLRLSCAASGFTFSSYTMNWVRQAPGKGLEWVSSITSSSTYIYYADSLKGRFTISRDDAKNSLYLQMNSLRAEDTAVYYCARDRFGEFIYPGALDIWGQGTLVTVSS
chain 2: EIVLAQSPATLSLSPGERAILSCRASQSVNTYLAWYQQKPGQAPRLLIYDASNRATGIPARFSGGGSGTDFTLTISSLEPEDFAVYYCQQRSNWPLTFGQGTKVEIK

Biological target: SARS-CoV-2 Omicron BA.1 spike pseudovirus
Assay: pseudovirus neutralization IC50; higher = weaker neutralization
Experimental: (§1)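 Single-round VSV luciferase pseudovirus mixed with antibody dilutions for 1 h and put on Huh-7 cells for about a day; IC50 from the dose curve.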

Row | Binder | pseudovirus neutralization IC50
1 | B1 | > 10 µg/mL
2 | B2 | > 10 µg/mL
3 | B3 | > 10 µg/mL
4 | B4 | 2.67 µg/mL
5 | B5 | > 10 µg/mL
6 | B6 | > 10 µg/mL

Biological target: SARS-CoV-2 Omicron BA.2 spike pseudovirus
Assay: as above
Experimental: as §1

Row | Binder | pseudovirus neutralization IC50
7 | B1 | > 10 µg/mL
8 | B2 | > 10 µg/mL
9 | B3 | > 10 µg/mL
10 | B4 | 2.15 µg/mL
11 | B5 | > 10 µg/mL
12 | B6 | > 10 µg/mL

Biological target: SARS-CoV-2 Omicron BA.2.75 spike pseudovirus
Assay: as above
Experimental: as §1

Row | Binder | pseudovirus neutralization IC50
13 | B1 | > 10 µg/mL
14 | B2 | > 10 µg/mL
15 | B3 | > 10 µg/mL
16 | B4 | 2.93 µg/mL
17 | B5 | > 10 µg/mL
18 | B6 | > 10 µg/mL

Biological target: SARS-CoV-2 Omicron BA.5 spike pseudovirus
Assay: as above
Experimental: as §1

Row | Binder | pseudovirus neutralization IC50
19 | B1 | > 10 µg/mL
20 | B2 | > 10 µg/mL
21 | B3 | > 10 µg/mL
22 | B4 | 1.87 µg/mL
23 | B5 | > 10 µg/mL
24 | B6 | > 10 µg/mL

Biological target: SARS-CoV-2 Omicron BQ.1.1 spike pseudovirus
Assay: as above
Experimental: as §1

Row | Binder | pseudovirus neutralization IC50
25 | B1 | > 10 µg/mL
26 | B2 | > 10 µg/mL
27 | B3 | > 10 µg/mL
28 | B4 | 1.83 µg/mL
29 | B5 | > 10 µg/mL
30 | B6 | > 10 µg/mL

Biological target: SARS-CoV-2 Omicron XBB spike pseudovirus
Assay: as above
Experimental: as §1

Row | Binder | pseudovirus neutralization IC50
31 | B1 | > 10 µg/mL
32 | B2 | > 10 µg/mL
33 | B3 | > 10 µg/mL
34 | B4 | 1.71 µg/mL
35 | B5 | > 10 µg/mL
36 | B6 | > 10 µg/mL

Biological target: SARS-CoV-2 early D614G spike pseudovirus
Assay: as above
Experimental: as §1

Row | Binder | pseudovirus neutralization IC50
37 | B1 | > 10 µg/mL
38 | B2 | > 10 µg/mL
39 | B3 | > 10 µg/mL
40 | B4 | 0.927 µg/mL
41 | B5 | 0.00187 µg/mL
42 | B6 | > 10 µg/mL
